This assay deals with recombinant ANDV Gn^H/Gc heterodimer (Andes virus (ANDV)). Kind of assay: BLI, koff at pH 5.5.

2 molecules from US20260250362A1 (MAPP BIOPHARMACEUTICAL, published 2026) can be followed below.

B1: ADI-65533 (antibody, V domains shown)
VH: QVQLVESGGGVVQPGRSLRLSCAASGFTFSSYAMHWVRQAPGKGLEWVAVTWFDVSKKDYADSVKGRFTISRDNSKNTLYLQMNSLRAEDTAVYYCARNLIRYSVSYFPVHGMDVWGQGTTVTVSS
VL: DIVMTQSPLSLPVTPGEPASISCRSSQSLLHTYGYNVLDWYLQRPGQSPQLLISLGSYRASGVPDRFSGSGSGTDFTLKISRVEAEDVGVYYCMQALHPFTFGGGTKVEIK
As for B1, the “fold reduction in dissociation at acidic pH against ADI-42898” value was about 10 fold.

B2: ADI-65534 (antibody, V domains shown)
VH: QVQLVESGGGVVQPGRSLRLSCAASGFEFSSYAMHWVRQAPGKGLEWVAVTWFDVSKKDYADSVKGRFTISRDNSKNTLYLQMNSLRAEDTAVYYCARNLIRYSVSYFPVHGMDVWGQGTTVTVSS
VL: DIVMTQSPLSLPVTPGEPASISCRSSQSLLHTYGYNVLDWYLQRPGQSPQLLISLGSYRASGVPDRFSGSGSGTDFTLKISRVEAEDVGVYYCMQALHPFTFGGGTKVEIK
Consider B2, for which the “fold reduction in dissociation at acidic pH against ADI-42898” value was about 10 fold.
